According to PubChem BioAssay AID504558 (Broad Institute, 2011):
The list shows a part of the results, in another mix than the full data. The source made the active and inactive calls. Cut-off read from the data, not from the text of the source: active = inhibition above about 41%; inconclusive = no clear call, values can overlap the other calls; inactive = below that.

Test: blockers of LMP1-induced NF-kB reporter signal – cell-based, luminescence, single point, primary screen (AID 504558);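 note: 0% = neutral control wells and 100% = reference inhibitor control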
Conditions: LMP1-induced NF-kappaB luciferase reporter cells, at 12.5 µM, stronger effect = higher value

SMILES | inhibition
N#Cc1ccc(C(=O)NCC2(N3CCCCC3)CCCCC2)cc1 | inactive: -18.3%
CC(C)(C)OC(=O)N1CCC(N(C(=O)c2ccccc2)c2ccc(Cl)cc2)CC1 | inactive: 0.016%
CN(C)C1(CNC(=O)c2cccc(C#N)c2)CCCCC1 | inactive: 2.3%
c1ccc(CN2CCC(Nc3ccccc3)CC2)cc1 | inactive: 23.1%
Cc1cc(N(CCCl)CCCl)ccc1C=O | active: 71.1%
CCCN1CCC(Nc2cc(OC)cc(OC)c2)CC1 | inactive: 1.92%
COc1cc(C(=O)NCC2(N3CCOCC3)CCCCC2)cc(OC)c1C | inactive: 0.522%
O=C(NCC1(N2CCOCC2)CCCCC1)c1cc(Br)ccc1Cl | inactive: 1.49%
COc1ccc(C(=O)NCC2(N3CCOCC3)CCCCC2)cc1OC | inactive: -8.77%
CCOC(=O)N1CCC(Nc2ccc(C)cc2)CC1 | inactive: -1.18%
N/C(=N\O)c1c(N)no[n+]1[O-] | inactive: -1.9%
O=C(OC1CN2CCC1CC2)C1c2ccccc2C=Cc2ccccc21 (stereo not given) | inactive: -11.7%
CCOc1ncccc1C(=O)NCC1(N2CCOCC2)CCCCC1 | inactive: -14.9%
CN1CCC(Nc2ccc(F)c(Cl)c2)CC1 | inactive: 1.61%
CC(C)(C)OC(=O)N1CCC(Nc2ccccc2)CC1 | inactive: -12.1%
O=C(O)C1(Nc2ccccc2)CCN(Cc2ccccc2)CC1 | inactive: 2.49%
CCCOc1ccc(C(=O)NCC2(N(C)C)CCCCC2)cc1 | inactive: -0.877%
COc1cc(OC)cc(C(=O)NCC2(N3CCOCC3)CCCCC2)c1 | inactive: -11.8%
COc1cccc(C(=O)N(c2cc(C)cc(C)c2)C2CCN(C(=O)OC(C)(C)C)CC2)c1 | inactive: 18.4%
CCC(CO)(C(=O)OC1CN2CCC1CC2)c1ccccc1 (stereo not given) | inactive: -7.98%
CN1CCC(Nc2ccc(Cl)cc2)CC1 | inactive: 3.33%
CC(=O)N(c1ccccc1)C1CCNCC1 | inactive: -1.52%
COc1cc(OC)cc(C(=O)NCC2(N3CCCCC3)CCCCC2)c1 | inactive: -29.8%
Cc1ccc(C(=O)NCC2(N3CCCCC3)CCCCC2)o1 | inactive: -13.7%
Fc1ccccc1NC1CCN(Cc2ccccc2)CC1 | inactive: 4.23%
Cc1ccc(NC2(C#N)CCN(Cc3ccccc3)CC2)cc1 | inactive: -2.22%
Cc1ccccc1NC1(C#N)CCN(Cc2ccccc2)CC1 | inactive: -1.57%
CCN1CCC(Nc2cccc(F)c2)CC1 | inactive: 10.3%
O=C(NCC1(N2CCCCC2)CCCCC1)c1ccco1 | inactive: -1.59%
Cn1c(=O)[nH]cc(N(CCCl)CCCl)c1=O | inactive: 36.1%
